Reference: article PMC9242477, “Type B and type A influenza polymerases have evolved distinct binding interfaces to recruit the RNA polymerase II CTD” (2022)

Target: G2-CTD (wild-type full-length CTD of RPB1 fused to G2 and the SV40 NLS)
Assay: split-gaussia luciferase complementation assay (in vivo CTD binding)
Details: parent: est. 100; read off a plot

With “FluPolB (B/Memphis/13/2003) wt: PB2, PB1 and PA-G1 (from UniProt Q5V8Z9;Q5V8Y6;Q5V8X3) PA:K416E” the percent of parent was 110 % of wt.
